Results from paper PMC4039064, “An inhibitor-driven study for enhancing the selectivity of indirubin derivatives towards leishmanial Glycogen Synthase Kinase-3 over leishmanial cdc2-related protein kinase 3” (Parasites & Vectors, 2014).

The chains behind the UniProt entries cited, without tags or fusion partners. Residues count along the entry.
UniProt O15851, 1-311: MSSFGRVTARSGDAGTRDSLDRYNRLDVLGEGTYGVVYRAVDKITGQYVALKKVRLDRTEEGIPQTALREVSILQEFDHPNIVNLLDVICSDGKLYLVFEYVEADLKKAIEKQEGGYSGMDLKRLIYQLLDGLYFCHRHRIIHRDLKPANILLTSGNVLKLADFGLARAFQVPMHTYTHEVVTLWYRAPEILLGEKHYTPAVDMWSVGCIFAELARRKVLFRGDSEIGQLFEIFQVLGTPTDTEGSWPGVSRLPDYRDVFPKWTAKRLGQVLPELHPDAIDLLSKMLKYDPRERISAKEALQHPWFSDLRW
UniProt A6N857, 1-355: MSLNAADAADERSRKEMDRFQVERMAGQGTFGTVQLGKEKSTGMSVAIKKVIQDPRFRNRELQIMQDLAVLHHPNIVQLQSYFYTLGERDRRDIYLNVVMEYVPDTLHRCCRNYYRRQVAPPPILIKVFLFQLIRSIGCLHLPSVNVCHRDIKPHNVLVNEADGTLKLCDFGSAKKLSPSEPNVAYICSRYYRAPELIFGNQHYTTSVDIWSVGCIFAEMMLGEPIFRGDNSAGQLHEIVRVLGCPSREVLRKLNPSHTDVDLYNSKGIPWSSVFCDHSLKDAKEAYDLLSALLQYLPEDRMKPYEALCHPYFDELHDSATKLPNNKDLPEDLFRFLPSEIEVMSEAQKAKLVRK

Columns and labels:
[1] = molecular target: LCRK3 (cdc2-related protein kinase 3) (Leishmania mexicana, UniProt O15851); test: luminescent kinase assay (Promega); assay type: biochemical; settings: histone H1 substrate, ATP
[2] = molecular target: LGSK-3 (leishmanial Glycogen Synthase Kinase-3 short) (Leishmania donovani, UniProt A6N857); test: luminescent kinase assay (Promega); assay type: biochemical; settings: GS-1 peptide substrate, ATP

O=C1Nc2c(cccc2C(F)(F)F)C1=C1Nc2ccccc2C1=NO
IC50 [1]: > 3.33 µM
IC50 [2]: > 3.33 µM
